Compound potency records, mixed from different reports. Data source: NIAID ChemDB in PubChem.

Shared fields: whole-cell or culture tests; agent: Cryptococcus neoformans; read-out: MIC

Lines come from different laboratories, so protocols vary. Blank or dashed fields: not listed here.

SMILES | strain | method | result
COc1c(O)ccc2c(=O)c3cccc(O)c3oc12 | - | - | >25 µg/mL
CCC(C)C#Cc1c(C)nc(N)nc1N | - | - | 0.2 µg/mL
CCCCCCCC(=O)CCCCCC/C=C/C(C(=O)NC(Cc1ccc(OCC=C(C)C)cc1)C(=O)O)C(O)(CC(=O)O)C(=O)O | TIMM0354 | - | 6.25 µg/mL
CC(N1CCN(c2ccc(-n3cnnn3)cc2)C1=O)[C@](O)(Cn1cncn1)c1ccc(F)cc1F | - | - | 0.25 µg/mL
COc1c(O)ccc2c(=O)c3c(O)cc(O)cc3oc12 | - | - | >25 µg/mL
COc1ccccc1CN(Cc1ccc(-c2ccccc2)cc1)n1ccnc1 | - | - | 5.5 µM
O=C(ONC1=Nc2ccc(Cl)cc2SCC1)c1ccccc1 | IMAT4711 | - | 50 µg/mL
CCC(C)CCCCCCC1CC(=O)NCC(=O)N[C@@H](CCCN)C(=O)N[C@@H](C(C)C)C(=O)N1 | TIMM0354 | - | 1.25 µg/mL
Cc1cc(O)c2c(c1)C(c1ccc3cc4c(c(O)c3c1O)C(=O)CC(C)(O)C4)c1cccc(O)c1C2=O | - | - | 4 µg/mL
O=C1/C(=C/c2ccc(-c3ccccc3)cc2)CSc2ccccc21 | 25 | - | 12.5 µg/mL
Fc1ccc(CN(Cc2ccc(-c3ccccc3)cc2)n2ccnc2)cc1 | - | - | 200 µM
CCCSc1nc(Cl)c(C#N)c(-c2cccc(F)c2)n1 | - | - | >100 µg/mL
C(=C\COc1ccc(C2=NCCN2)cc1)/COc1ccc(C2=NCCN2)cc1 | ATCC 32264 | - | 4.12 µg/mL
CC(C)=CCc1c(O)cc(O)c2oc3cccc(O)c3c(=O)c12 | - | - | >25 µg/mL
CCC(O)(C#Cc1c(C)nc(N)nc1N)CC | - | - | 12.5 µg/mL
O=C(NC1=Nc2ccc3ccccc3c2SC1)Oc1ccccc1 | IMAT4711 | - | 50 µg/mL
O=C1/C(=C/c2ccc(O)cc2)COc2ccccc21 | Farwania | - | 6 µg/mL
C[C@H]1[C@H](O)[C@@H](C)/C=C/C=C/C=C/C=C/C=C/C=C/C=C/[C@H](O[C@@H]2O[C@H](C)[C@@H](O)[C@H](N)[C@@H]2O)C[C@@H]2O[C@](O)(C[C@@H](O)C[C@@H](O)CC[C@H](O)[C@@H](O)C[C@@H](O)CC(=O)O[C@H]1C)C[C@H](O)[C@H]2C(=O)O | - | - | 0.04 µg/mL
N[C@H]1CCC[C@H]1C(=O)O | D49 | - | >20 µg/mL
ONC1=Nc2ccccc2SC(c2ccccc2)C1 | IMAT4711 | - | 50 µg/mL
CC[C@@]1(O)C[C@H](O[C@H]2C[C@H](N(C)C)[C@H](O[C@H]3C[C@H](O)[C@H](O[C@H]4CCC(=O)[C@H](C)O4)[C@H](C)O3)[C@H](C)O2)c2c(cc3c(c2O)C(=O)c2c(O)cccc2C3=O)[C@H]1C(=O)OC | Clinical isolate (capsule-negative) | - | >100 µM
CNC1C(C)OC(O[C@H]2c3cc(C)c(C(=O)N[C@@H](CO)C(=O)O)c(O)c3-c3c(cc4c(c3O)C(=O)c3cc(OC)cc(O)c3C4=O)[C@@H]2O)C(O)C1OC1OCC(O)C(O)C1O | IAM 4514 | - | 0.8 µg/mL
Clc1ccc(C(Cn2ccnc2)OC/C=C/c2ccccc2)cc1 | - | - | >128 µg/mL
CN[C@@H]1[C@H](O[C@@H]2OC[C@@H](O)[C@H](O)[C@H]2O)[C@@H](O)[C@H](O[C@H]2c3cc(C)c(C(=O)NCC(=O)O)c(O)c3-c3c(cc4c(c3O)C(=O)c3cc(OC)cc(O)c3C4=O)[C@@H]2O)O[C@@H]1CO | D49 | - | 1.6 µg/mL
COc1cc(O)c2c(=O)c3ccc(O)c(OC)c3oc2c1 | - | - | >25 µg/mL
CC(=O)OCC1=C(C(=O)O)N2C(=O)C(NC(=O)CSC(=S)N(C)C)C2SC1 | - | - | 63 µg/mL
CC(C)=CCc1c(O)cc(O)c2oc3cc(O)cc(O)c3c(=O)c12 | - | - | >25 µg/mL
C=C1C(NC(=O)C(C)Oc2ccccc2)C2SC(C)(C)C(C(=O)[S-])N12 | - | - | 250 µg/mL
C[C@@H](c1ncncc1F)[C@](O)(Cn1cncn1)c1ccc(F)cc1F | B 32287 | broth dilution | 0.125 µg/mL
O=C1/C(=C/c2ccc3c(c2)OCO3)CSc2ccccc21 | Farwania | - | 12.5 µg/mL
Cc1cc2c3c(N)nc(N)nc3ccc2n1C | - | - | 6.2 µg/mL
Clc1ccc(CN(Cc2ccc(-c3ccccc3)cc2)n2ccnc2)cc1 | - | - | 200 µM
Clc1ccc(C(Cn2ccnc2)OC/C=C/c2ccccc2)c(Cl)c1 | - | - | >128 µg/mL
O=C1c2c(O)ccc(O)c2C(=O)c2c(NCCNCCO)ccc(NCCNCCO)c21 | Clinical isolate (capsule-negative) | - | 24.2 µM
CC[C@@H]1[C@@H](Cn2cncn2)[C@H](COc2ccc(OC(F)(F)F)cc2)CC[C@@]1(C)CCSc1nccn1C | CY1057 | - | 0.9 µg/mL
C=C1/C=C(\CO)[C@H](CC)OC(=O)[C@H](C)C(=O)C(O)(CO)C/C(C)=C/[C@@H](C)C1 | MY2062 | - | 3.1 µg/mL
CCSc1nc(Cl)c(C#N)c(-c2ccc(F)cc2F)n1 | - | - | 6.25 µg/mL
CC(=O)ONC1=Nc2ccccc2SC1c1ccccc1 | IMAT4711 | - | 10 µg/mL
CC1(O)CC(=O)c2c(cc3ccc(-c4c5c(c(O)c6c(O)cccc46)C(=O)CC(C)(O)C5)c(O)c3c2O)C1 | - | - | 8 µg/mL
COc1ccc2c(c1)C(=O)/C(=C/c1ccc3ccccc3c1)CO2 | 25 | - | 12.5 µg/mL
CC(=O)OCC1=C(C(=O)O)N2C(=O)C(NC(=O)CSC(=S)N3CCCCC3)C2SC1 | - | - | >250 µg/mL
O=C1c2ccccc2C(=O)C2CC(O)OCC12 | ATCC 32608 | broth dilution | 87.3 µM
CSc1nc(Cl)c(C#N)c(-c2ccc(F)cc2F)n1 | - | - | 3.12 µg/mL
ONC1=Nc2ccc3ccccc3c2SCC1 | IMAT4711 | - | 50 µg/mL
Fc1ccccc1CN(Cc1ccc(-c2ccccc2)cc1)n1ccnc1 | - | - | 33 µM
CC(C)CCCCCCCCCC1CC(=O)NCC(=O)N[C@@H](CCCCN)C(=O)N[C@@H](C(C)C)C(=O)N1 | TIMM0354 | - | 0.63 µg/mL
Cc1nc(N)nc(N)c1C#CC(C)(C)C | - | - | 0.2 µg/mL
Cc1ccc(C(Cn2ccnc2)OCc2cccc3ccccc23)cc1 | - | - | >128 µg/mL
O=c1c2cc(O)ccc2oc2cc(O)cc(O)c12 | - | - | >25 µg/mL
c1ccc(-c2ccc(COC(Cn3ccnc3)c3ccccc3)cc2)cc1 | - | - | >128 µg/mL
O=C(ONC1=Nc2cc(Cl)ccc2SCC1)c1ccccc1 | IMAT4711 | - | 50 µg/mL
CCC(C)n1ncn(-c2ccc(N3CCN(c4ccc(OC[C@H]5CO[C@](Cn6cncn6)(c6ccc(Cl)cc6Cl)O5)cc4)CC3)cc2)c1=O | ATCC 90113 | - | 2 µg/mL
COc1cc(C2=NCCN2)ccc1OC/C=C/COc1ccc(C2=NCCN2)cc1OC | ATCC 32264 | - | 12.5 µg/mL
CC(C)=CCC/C(C)=C/Cc1c(O)cc(O)c(C(=O)c2ccccc2)c1O | - | - | 3.13 µg/mL
N=C(N)c1ccc(OC/C=C/COc2ccc(C(=N)N)cc2)cc1 | ATCC 32264 | - | 3.12 µg/mL
CC(=O)ONC1=Nc2ccc(Cl)cc2SCC1 | IMAT4711 | - | 25 µg/mL

Again, the opening 7 rows:

SMILES,strain,method,result
COc1c(O)ccc2c(=O)c3cccc(O)c3oc12,-,-,>25 µg/mL
CCC(C)C#Cc1c(C)nc(N)nc1N,-,-,0.2 µg/mL
CCCCCCCC(=O)CCCCCC/C=C/C(C(=O)NC(Cc1ccc(OCC=C(C)C)cc1)C(=O)O)C(O)(CC(=O)O)C(=O)O,TIMM0354,-,6.25 µg/mL
CC(N1CCN(c2ccc(-n3cnnn3)cc2)C1=O)[C@](O)(Cn1cncn1)c1ccc(F)cc1F,-,-,0.25 µg/mL
COc1c(O)ccc2c(=O)c3c(O)cc(O)cc3oc12,-,-,>25 µg/mL
COc1ccccc1CN(Cc1ccc(-c2ccccc2)cc1)n1ccnc1,-,-,5.5 µM
O=C(ONC1=Nc2ccc(Cl)cc2SCC1)c1ccccc1,IMAT4711,-,50 µg/mL